A mixed list of measured activities; the numbers were collected in NIAID ChemDB.

All rows: cytotoxicity tests; read-out: CC50

CCn is the concentration with n% toxicity to the cells. Rows are shuffled and stem from different studies. a–b is a range or a potency band. An empty or dashed field is not shown.

structure | cells | read by | value
O=C1S/C(=C/c2ccc(O)c(O)c2)C(=O)N1c1ccc(O)cc1 | HOS | - | 28 µM
CCCCCCCCCCCCCCCC(=O)O[C@@H]1[C@H](O)[C@@H](O[C@@H]2O[C@H](CO)[C@H](O)[C@H](O)[C@H]2O)O[C@H](CO)[C@H]1O | TZM-b1 | - | 75.99 µM
CCCCCCOC(=O)Nc1ncnn2c([C@@H]3O[C@H](CO)[C@@H](O)[C@@]3(C)O)ccc12 | Caco2 | MTS | 9.3 µM
Nc1nc2c(ncn2COC(CO)CO)c(=O)[nH]1 | H-1 | - | 75 µM
CCCCCCCCCCCCCCCC(=O)OC[C@H]1O[C@H](OC)[C@@H](O)[C@@H](O)[C@@H]1O | TZM-b1 | - | >100 µM
CC(C)C[C@@H]1NC(=O)[C@H](Cc2ccccc2)NC(=O)[C@@H](CCCCN)NC(=O)[C@H](CC(N)=O)NC(=O)[C@H](C(C)C)NC(=O)[C@@H](CC(C)C)NC1=O | Colorectal carcinoma | MTT | >30 µM
CCOC(=O)CCCCCOc1cccc(CN(C(=O)c2ccc(-c3cc(OC)ccc3F)cc2)C(C)C)c1 | BJ | - | >20 µM
COc1ccc(OC)c(/C(C)=N/NC(=O)c2ccncc2)c1 | HEL cells | MTT | 100 µg/mL
CC(C)COc1cccc(-c2ccc(C(=O)N(Cc3cccc(OCCCCCC(=O)OC(=O)O)c3)C(C)C)cc2)c1 | RAJI | - | >20 µM
CO[C@H]1O[C@H](Cn2cc(I)c(=O)[nH]c2=O)[C@H](O)[C@H]1OCc1ccccc1F | MOLT 4/C8 | - | 126 µM
CC(C)C[C@@H]1NC(=O)[C@H](Cc2c[nH]c3ccccc23)NC(=O)[C@H](CCCN=C(N)N)NC(=O)[C@H](CCCCN)NC(=O)[C@H](C(C)C)NC(=O)[C@@H](CC(C)C)NC1=O | Lung carcinoma cells | MTT | >30 µM
CC[C@@H](C)[C@@H]1NC(=O)[C@@H](CC(C)C)NC(=O)[C@H](CC(C)C)NC(=O)[C@H](Cc2c[nH]c3ccccc23)NC(=O)[C@@H](CCCN)NC(=O)[C@H](COC(C)(C)C)NC1=O | Hep2G | luminescence | >100 µM
CCCNCc1ccc(OCC(=O)OCC)cc1 | HEK 293 | - | >20 µM
O[C@@H]1[C@H](O)[C@H](O)CO[C@H]1n1c(Br)nc2cc(Cl)c(Cl)cc21 | MOLT-3 | ATP | 44 µM
O=S(=O)(Cc1c(Cl)c(Cl)c(Cl)c(Cl)c1Cl)c1cccc[n+]1[O-] | U1 | MTT | 27 µg/mL
CO[C@H]1O[C@H](Cn2c(C)c(C)c(=O)[nH]c2=O)[C@H](O)[C@H]1OCc1ccccc1F | MOLT 4/C8 | - | 30 µM
CC(C)COC(=O)Nc1ncnn2c([C@@H]3O[C@H](CO)[C@@H](O)[C@@]3(C)O)ccc12 | Caco2 | MTS | >100 µM
C/C(=N\NC(=O)c1ccncc1)c1ccc(Br)cc1 | HEL cells | MTT | 51 µg/mL
CCCN(Cc1ccc(OCC(=O)OCC)cc1)C(=O)c1ccc(-c2ccc3c(c2)OCO3)cc1 | BJ | - | >20 µM
CCCCCCCCCCCCCCCC(=O)OC[C@H]1O[C@H](O[C@@H]2O[C@H](CO)[C@@H](O)[C@H](O)[C@H]2O)[C@@H](O)[C@@H](O)[C@@H]1O | TZM-b1 | - | 52.51 µM
CO[C@H]1O[C@H](Cn2c(C)cc(=O)[nH]c2=O)[C@H](O)[C@H]1OCc1ccccc1F | MOLT 4/C8 | - | 155 µM
CCOC(=O)CCCCCOc1cccc(CN(C(=O)c2ccc(-c3cccc(OC(F)(F)F)c3)cc2)C(C)C)c1 | HEK 293 | - | >20 µM
CC(C)Nc1nc2cc(Cl)c(Cl)cc2n1[C@@H]1OC[C@@H](O)[C@H]1O | MOLT-3 | ATP | >100 µM
O=C(O)CC1CC(=O)Oc2c1ccc(O)c2O | HOS | - | 58 µM
CC(C)C[C@@H]1NC(=O)[C@H](Cc2c[nH]c3ccccc23)NC(=O)[C@@H](CCCN)NC(=O)[C@@H](CCCN)NC(=O)[C@H](C(C)C)NC(=O)[C@@H](CC(C)C)NC1=O | Hep2G | luminescence | >100 µM
Cc1cn([C@H]2O[C@@H](CO)[C@H](O)[C@H]2F)c(=O)[nH]c1=O | H-1 | - | 1000 µM
CC(C)Nc1nc2cc(Cl)c(Cl)cc2n1[C@H]1O[C@H](C)[C@H](O)[C@@H]1O | MOLT-3 | ATP | >100 µM
CC(C)Nc1nc2cc(Cl)c(Cl)cc2n1[C@H]1O[C@@H](CO)[C@H](O)[C@@H]1O | CEM-CD+4 | - | 35–72 µM
CC(C)N(Cc1cccc(OCCCCCC(=O)OC(=O)O)c1)C(=O)c1ccc(-c2cccc(Cl)c2)cc1 | RAJI | - | >20 µM
CCC(C)[C@@H]1NC(=O)[C@@H](CC(C)C)NC(=O)[C@H](CC(C)C)NC(=O)[C@H](Cc2c[nH]c3ccccc23)NC(=O)CNC(=O)[C@H](CC(N)=O)NC1=O | Colorectal carcinoma cells | MTT | >30 µM
C=C(C)C1CC[C@]2(C(=O)O)CC[C@]3(C)C(CCC4[C@@]5(C)C[C@@H](C(=O)[O-])[C@H](O)C(C)(C)C5CC[C@]43C)C12 | 1A2 | XTT | 15.9 µg/mL
CCCCCCCOC(=O)Nc1ncnn2c([C@@H]3O[C@H](CO)[C@@H](O)[C@@]3(C)O)ccc12 | Caco2 | MTS | 31 µM
Cc1nc2c(OC(F)F)cccc2n1-c1ccc(C(=O)NC2CC2)s1 | Dermal fibroblast | resazurin | >62 µM
CC(C)OC(=O)[C@H](C)N[P@](=O)(OC[C@H]1O[C@@H](c2ccc3c(N)ncnn23)[C@](C)(O)[C@@H]1O)OC(=O)C(C)C | Caco2 | MTS | 43 µM
CCOC(OCC)C(=O)NCCc1ccc(OC)c(OC)c1 | RAJI | - | <7.5 µM
CC[C@H](/C=C/[C@@H](C)[C@H]1CC[C@H]2[C@@H]3CC=C4C[C@@H](O[C@@H]5O[C@H](CO)[C@@H](O)[C@H](O)[C@H]5O)CC[C@]4(C)[C@H]3CC[C@]12C)C(C)C | 1A2 | XTT | >125 µg/mL
C/C(=N\NC(=O)c1ccncc1)c1ccc([N+](=O)[O-])cc1 | HEL cells | MTT | 54 µg/mL
OC[C@H]1O[C@@H](n2c(Br)nc3cc(Cl)c(Cl)cc32)[C@H](O)[C@@H]1O | IM9 | - | 35–72 µM
CC(C)C[C@@H]1NC(=O)[C@H](Cc2c[nH]c3ccccc23)NC(=O)[C@@H](CCCN)NC(=O)[C@H](CC(N)=O)NC(=O)[C@H](C)NC(=O)[C@@H](CC(C)C)NC1=O | Hep2G | luminescence | >100 µM
C[C@H]1O[C@H](n2c(Br)nc3cc(Cl)c(Cl)cc32)[C@@H](O)[C@H]1O | MOLT-3 | ATP | 80 µM
CC(C)C[C@@H]1NC(=O)[C@H](Cc2c[nH]c3ccccc23)NC(=O)[C@@H](CCCN)NC(=O)[C@H](CC(N)=O)NC(=O)[C@H](C(C)C)NC(=O)[C@@H](CC(C)C)NC1=O | Hep2G | luminescence | 56 µM
CC(C)C[C@@H]1NC(=O)[C@H](Cc2c[nH]c3ccccc23)NC(=O)[C@@H](CCCNC(N)=O)NC(=O)[C@H](CC(N)=O)NC(=O)[C@H](C(C)C)NC(=O)[C@@H](CC(C)C)NC1=O | Colorectal carcinoma | MTT | >30 µM

Again, the opening 4 rows:

O=C1S/C(=C/c2ccc(O)c(O)c2)C(=O)N1c1ccc(O)cc1 ; cells: HOS ; value: 28 µM
CCCCCCCCCCCCCCCC(=O)O[C@@H]1[C@H](O)[C@@H](O[C@@H]2O[C@H](CO)[C@H](O)[C@H](O)[C@H]2O)O[C@H](CO)[C@H]1O ; cells: TZM-b1 ; value: 75.99 µM
CCCCCCOC(=O)Nc1ncnn2c([C@@H]3O[C@H](CO)[C@@H](O)[C@@]3(C)O)ccc12 ; cells: Caco2 ; read by: MTS ; value: 9.3 µM
Nc1nc2c(ncn2COC(CO)CO)c(=O)[nH]1 ; cells: H-1 ; value: 75 µM